A mixed list of measured activities; the numbers were collected in NIAID ChemDB.

Shared fields: whole-cell or culture tests; agent: Herpes simplex virus 1; read by: cytopathic effect; read-out: EC50

a–b is a range or a potency band.

SMILES | cells | strain | result
OC[C@H]1O[C@@H](c2cc(C#CBr)c(F)cc2F)C[C@@H]1O | E6SM | VMW1837 (TK-) | >400 µg/mL
Nc1cc(OC[C@H](CO)OCP(=O)(O)O)nc(N)n1 | E6SM | KOS | 4.8 µM
OC[C@H]1O[C@@H](c2cc(F)c(F)cc2F)C[C@@H]1O | E6SM | McIntyre | >400 µg/mL
OC[C@H]1O[C@@H](c2cncc(Br)c2)[C@@H](O)[C@@H]1O | E6SM | KOS | ≥100 µg/mL
N=C(N)CCNC(=O)c1c[nH]c(NC(=O)c2c[nH]c(NC(=O)CCCCCCCC(=O)Nc3c[nH]c(C(=O)Nc4c[nH]c(C(=O)NCCC(=N)N)c4)c3)c2)c1 | PRK | - | 40 µg/mL
O=c1[nH]c(=O)n([C@H]2C[C@H](O)[C@@H](CO)O2)cc1I | HFF | - | 0.36 µM
N=C(N)CCNC(=O)c1c[nH]c(NC(=O)c2c[nH]c(NC(=O)c3c[nH]c(NC(=O)CCC(=O)Nc4c[nH]c(C(=O)Nc5c[nH]c(C(=O)Nc6c[nH]c(C(=O)NCCC(=N)N)c6)c5)c4)c3)c2)c1 | PRK | - | 4 µg/mL
Nc1nc2c(ncn2COC(CO)CO)c(=O)[nH]1 | VERO | - | 0.01–0.1 µM
CC1(C)[C@@H](CCO)C[C@H]1n1cnc2c(=O)[nH]c(N)nc21 | E6SM | TK-/B2006 | 300 µg/mL
OC[C@H]1O[C@H](c2cc(Br)c(F)cc2F)C[C@@H]1O | E6SM | KOS | >400 µg/mL
Nc1nc2c(ncn2[C@@H]2CO[C@H](CO)[C@@H](O)C2)c(=O)[nH]1 | VERO | - | 1–10 µM
Nc1nc(-n2c(-c3ccccc3)nc3ccc(Br)cc3c2=O)nnc1-c1cccc(Cl)c1Cl | E6SM | KOS ACV (TK-) | >80 µg/mL
Nc1cc(OCCOCP(=O)(O)O)nc(N)n1 | E6SM | KOS | 25 µM
N#Cc1cncc([C@H]2O[C@H](CO)[C@H](O)[C@@H]2O)c1 | E6SM | KOS | ≥100 µg/mL
Nc1ncnc2c1ncn2[C@@H]1C[C@H](COP(=O)(O)O)[C@@H](O)[C@H]1O | PRK | - | 200 µg/mL
Cc1nc2ccc(Br)cc2c(=O)n1-c1nnc(-c2cccc(Cl)c2Cl)c(N)n1 | E6SM | KOS | >3.2 µg/mL
CC1(C)[C@@H](CCO)C[C@H]1n1nnc2c(=O)[nH]cnc21 | E6SM | TK-/B2006 | 40 µg/mL
NC1=NC2C(C=CN2CC(CO)CCO)C(=O)N1 | VERO | - | 0.01–0.1 µM
N#Cc1cncc([C@@H]2O[C@H](CO)[C@H](O)[C@@H]2O)c1 | E6SM | KOS | ≥100 µg/mL
OC[C@H]1O[C@@H](c2cc(C#CI)c(F)cc2F)C[C@@H]1O | E6SM | KOS ACV-R (TK-) | >400 µg/mL
NC(=S)c1cncc([C@H]2O[C@H](CO)[C@@H](O)[C@@H]2O)c1 | E6SM | KOS | ≥100 µg/mL
OC[C@H]1O[C@@H](c2cc(C(F)(F)F)c(F)cc2F)C[C@@H]1O | E6SM | McIntyre | >400 µg/mL
C=Cc1cc([C@H]2C[C@H](O)[C@@H](CO)O2)c(F)cc1F | E6SM | KOS | >400 µg/mL
N=C(N)CCNC(=O)c1c[nH]c(NC(=O)c2c[nH]c(NC(=O)CC(=O)Nc3c[nH]c(C(=O)Nc4c[nH]c(C(=O)NCCC(=N)N)c4)c3)c2)c1 | PRK | - | 4 µg/mL
NC(=O)c1cncc([C@H]2O[C@H](CO)[C@H](O)[C@@H]2O)c1 | E6SM | KOS | ≥100 µg/mL
Nc1ncnc2c1c(Br)cn2COCCO | VERO | - | 23.74 µM
CN1C=CCC(C(=O)O[C@H]2C[C@H](n3cc(I)c(=O)[nH]c3=O)O[C@@H]2CO)=C1 | HFF | - | 0.23 µM
CC1(C)[C@@H](CCO)C[C@H]1n1nnc2c(Cl)nc(N)nc21 | E6SM | KOS | >100 µg/mL
NC(=O)c1cncc([C@@H]2O[C@H](CO)[C@H](O)[C@@H]2O)c1 | E6SM | KOS | ≥100 µg/mL
C=Cc1cn([C@H]2C[C@H](O)[C@@H](CO)O2)c(=O)[nH]c1=O | HFF | - | 0.04 µM
C[C@H]1/C=C/[C@@]2(C)CC[C@@H](C(C)(C)O)[C@@H]2[C@@H](O)C[C@](C)(O)/C=C/C1 | VERO | - | <15 µM
OC[C@H]1O[C@H](c2cncc(Br)c2)[C@@H](O)[C@@H]1O | E6SM | KOS | ≥100 µg/mL

A second listing of 2 rows from above:

| SMILES | cells | strain | result |
|---|---|---|---|
| Nc1nc2c(ncn2[C@@H]2CO[C@H](CO)[C@@H](O)C2)c(=O)[nH]1 | VERO | - | 1–10 µM |
| NC(=O)c1cncc([C@@H]2O[C@H](CO)[C@H](O)[C@@H]2O)c1 | E6SM | KOS | ≥100 µg/mL |

An empty or dashed field is not shown. Neighbouring rows are from separate reports. ECn is the concentration giving n% inhibition of infection, replication or growth.